Measurements taken from patent publication US11608371.

Molecular target: Protein A (Sensor Chip Protein A, Cytiva) (UniProt P38507)
Experiment: SPR (Biacore 8K), Sensor Chip Protein A, kinetics affinity, 1:1 binding fit; Bedinvetmab made in CHO-s

For Bedinvetmab (antibody), the Kd was 0.01 nM.
